Results on one compound are retold here after article PMC11026403 (Communications Biology, 2024).

For this assay, the target named is A/Denmark/524/2009 (H1N1)pdm09 NA-H274 (Influenza A virus, UniProt C3W5S3). It is filed as biochemical.

As for `CC(=O)N[C@H]1[C@H]([C@H](O)[C@H](O)CO)OC(C(=O)O)=C[C@@H]1N=C(N)N` [zanamivir], 0.31 nM corresponded to half-maximal inhibition (IC50).
